From PMC11156646
The exact form of at least one protein or probe is not confirmed. For some assays here: Weaker means in comparison with the reference protein, sequence or condition of that experiment. For some assays here: At least one verdict rests on a figure or table, not on a statement of the authors.

Columns and labels:
[1] = tested on: RNAP core enzyme (alpha2, beta, beta', omega, delta, epsilon) + sigmaB; assay: EMSA; conditions: RPo; 50 mM Tris-HCl pH 8.0, 0.1 M KCl, 10 mM MgCl2; EMSA 40 nM DNA, 100 nM holoenzyme, 37 C 10 min; recombinant protein; protein details: 10xHis after rpoC
[2] = molecular target: sigmaA (Staphylococcus aureus N315) (UniProt Q99TT5); assay: fluorescence polarization; conditions: free sigma, no RNAP, 0-10 uM, weaker than delta1.1; 50 mM Tris-HCl pH 8.0, 0.1 M KCl, 10 mM MgCl2; FP 0.1 uM DNA, 25 C 10 min; recombinant protein; label: 3' 6-FAM on template strand
[3] = tested on: sigmaA delta1.1 (Staphylococcus aureus N315); assay: fluorescence polarization; conditions: free sigma, no RNAP, 0-10 uM, better than full-length; 50 mM Tris-HCl pH 8.0, 0.1 M KCl, 10 mM MgCl2; FP 0.1 uM DNA, 25 C 10 min; recombinant protein; label: 3' 6-FAM on template strand
[4] = tested on: RNAP core enzyme (alpha2, beta, beta', omega, delta, epsilon) + sigmaA delta1.1; assay: EMSA; conditions: RPo increased vs full-length sigmaA; 50 mM Tris-HCl pH 8.0, 0.1 M KCl, 10 mM MgCl2; EMSA 40 nM DNA, 100 nM holoenzyme, 37 C 10 min; recombinant protein; protein details: 10xHis after rpoC
[5] = tested on: RNAP core enzyme (alpha2, beta, beta', omega, delta, epsilon) + sigmaA; assay: EMSA; conditions: RPo, less than delta1.1; 50 mM Tris-HCl pH 8.0, 0.1 M KCl, 10 mM MgCl2; EMSA 40 nM DNA, 100 nM holoenzyme, 37 C 10 min; recombinant protein; protein details: 10xHis after rpoC

GTTATGAATTTAATGAATGAGTTTAAAGCCCATGTAAAAGGGGTATCAGTACTTATAAATTTGAGAGAGGAGTTTAAATATGGCTGGTTCTCGATCGAGGAGTTTAAATATGGCTGGTTCTCGCGAGAATTCCGAATAGCCATCCCAATCGATATCGAGGAGTTTAAATATGGCTGGTTCTCGCGAGAATTCCGAATAGCCATCCCAATCGATATCGAGGAGTTTAAATATGGCTGGTTCTCGCGAGAATTCCGAATAGCCATCCCAATCGATATCGAGGAGTTTAAATATGGCTGGTTCTCGCGAGAATTCCGAATAGCCATCCCAATCGATCGAGAATTCCGAATAGCCATCCCAATCGAACAGGCCTGCTGGTAATCGCAGGCCTTTTTATTTGGATCCCCGGGTAGAATTCTCTCTC (double strand) [PyabJ EMSA fragment (ribogreen template)]
binding result [1]: binds

AAAATAATTAAAAATAATTCTTGACATACAAAAACTTACGAGTTATAATTAAATCTTGTAAGTGACAAACG (double strand) [rrnB P1 FP scaffold]
binding result [2]: binds more weakly | binding result [3]: binds

AAAATAATTAAAAATAATTCTTGACTTACAAAAACTTACGAGTTATAATTAAATCATAAATTTGAGAGAGGAGTTTAAATATGGCTGGTTCTCGATCGAGGAGTTTAAATATGGCTGGTTCTCGCGAGAATTCCGAATAGCCATCCCAATCGATATCGAGGAGTTTAAATATGGCTGGTTCTCGCGAGAATTCCGAATAGCCATCCCAATCGATATCGAGGAGTTTAAATATGGCTGGTTCTCGCGAGAATTCCGAATAGCCATCCCAATCGATATCGAGGAGTTTAAATATGGCTGGTTCTCGCGAGAATTCCGAATAGCCATCCCAATCGATCGAGAATTCCGAATAGCCATCCCAATCGAACAGGCCTGCTGGTAATCGCAGGCCTTTTTATTTGGATCCCCGGGTAGAATTCTCTCTC (double strand) [rrnB P1 EMSA fragment (ribogreen template)]
binding result [4]: binds | binding result [5]: binds
